Results of unrelated studies side by side (data: NIAID ChemDB).

All rows: tests on isolated targets; species: HIV-1; protein: gp120; measure: inhibition

Conditions beyond the fields shown may differ between rows. An empty or dashed field is not shown. Inhibition is in % at the dose shown (toxicity tests: loss of growth or viability).

structure	strain or isolate	read by	conditions	tested at	value
Cc1ncc(COP(=O)(O)O)c(C=O)c1O	-	binding	-	100 µM	0%
CC(C)(CS(=O)(=O)[O-])[NH2+]C(=O)C(CC(F)(OC(F)(F)C(F)(OC(F)(F)C(F)(OC(F)(F)C(F)(F)C(F)(F)F)C(F)(F)F)C(F)(F)F)C(F)(F)F)C(F)(OC(F)(F)C(F)(OC(F)(F)C(F)(OC(F)(F)C(F)(F)C(F)(F)F)C(F)(F)F)C(F)(F)F)C(F)(F)F	-	ELISA	-	100 µg/mL	88%
C=CC1=C(C)C2=NC1=CC1=NC(=C(CC)/C1=C\[O-])C=c1[n-]c3c(c1C)C(=O)[C@H](C(=O)OC)C=3C1=NC(=C2)[C@@H](C)[C@@H]1CCC(=O)OC/C=C(\C)CCCC(C)CCCC(C)CCCC(C)C.[Mg+2]	-	-	-	60 µg/mL	63.4%
O=S(=O)(O)c1cc(O)c2c(NS(=O)(=O)c3ccc(-c4ccc(S(=O)(=O)Nc5cc(S(=O)(=O)O)cc6cc(S(=O)(=O)O)cc(O)c56)cc4)cc3)cc(S(=O)(=O)O)cc2c1	-	fluorescence	-	100 µg/mL	66%
CC1=C(CCC(=O)O)c2cc3nc(cc4[nH]c(cc5[nH]c(cc1n2)c(C)c5C(O)CO)c(C)c4C(O)CO)C(C)=C3CCC(=O)O	-	-	-	60 µg/mL	43.3%
O=c1c(O)cc([C@H]2Oc3cc(O)cc(O)c3C[C@H]2O)cc2c([C@H]3Oc4cc(O)cc(O)c4C[C@H]3O)cc(O)c(O)c12	-	ELISA	-	20 µM	16%
C=Cc1c(C)c2cc3c(C=C)c(C)c(cc4nc(cc5nc(cc1[nH]2)C(C)=C5CCC(=O)O)C(CCC(=O)O)=C4C)n3C	-	-	-	60 µg/mL	77.2%
COc1ccnc2[nH]cc(C(=O)C(=O)N3CCN(C(=O)c4ccccc4)C[C@H]3C)c12	YU2	ELISA	-	1 µM	76.5%
O=S(=O)(O)c1cc(N=C=S)ccc1/C=C/c1ccc(N=C=S)cc1S(=O)(=O)O	-	binding	-	10 µM	0%
O=CC1OC(=O)c2cc(O)c(O)c(O)c2Oc2cc3c(c(O)c2O)-c2c(cc(O)c(O)c2O)C(=O)OCC2OC(OC(=O)c4cc(O)c(O)c(O)c4Oc4cc5c(c(O)c4O)-c4c(cc(O)c(O)c4O)C(=O)OC(C(O)COC5=O)C1OC(=O)c1cc(O)c(O)c(O)c1)C(OC(=O)c1cc(O)c(O)c(O)c1)C(OC(=O)c1cc(O)c(O)c(O)c1)C2OC3=O	-	binding	-	1.56 µg/mL	62%
O=C(O[C@H]1Cc2c(O)cc(O)cc2O[C@@H]1c1cc(O)c(O)c(O)c1)c1cc(O)c(O)c(O)c1	-	ELISA	-	20 µM	0.6%
O=C(OC[C@H]1O[C@@H](O)[C@@H]2OC(=O)c3cc(O)c(O)c(O)c3-c3c(cc(O)c(O)c3O)C(=O)O[C@H]2[C@@H]1OC(=O)c1cc(O)c(O)c(O)c1Oc1cc2c(c(O)c1O)-c1c(cc(O)c(O)c1O)C(=O)O[C@@H]1[C@@H](OC2=O)[C@H](OC(=O)c2cc(O)c(O)c(O)c2)O[C@@H]2COC(=O)c3cc(O)c(O)c(O)c3-c3c(cc(O)c(O)c3O)C(=O)O[C@@H]12)c1cc(O)c(OC(=O)c2cc(O)c(O)c(O)c2)c(O)c1	-	binding	-	0.78 µg/mL	42.6%
NOCc1c(F)cccc1Cl	-	ELISA	-	4 µg/mL	10%
C=Cc1c(C)c2cc3nc(cc4[nH]c(cc5nc(cc1[nH]2)C(C)=C5CO)c(C)c4CCC(=O)O)C(CCC(=O)O)=C3C	-	-	-	60 µg/mL	89.5%
O=S(=O)(O)c1c2ccccc2c(-c2c3nc(c(-c4c5ccccc5c(S(=O)(=O)O)c5ccccc45)c4ccc([nH]4)c(-c4c5ccccc5c(S(=O)(=O)O)c5ccccc45)c4nc(c(-c5c6ccccc6c(S(=O)(=O)O)c6ccccc56)c5ccc2[nH]5)C=C4)C=C3)c2ccccc12	IIIB	ELISA	-	50 µg/mL	100%
C=Cc1c(C)c2cc3[nH]c(cc4nc(cc5nc(cc1[nH]2)C(C)=C5CCC(=O)O)C(CCC(=O)O)=C4C)c(C)c3C(C)O	-	-	-	60 µg/mL	83.7%
Clc1ccc(CNc2ccccc2Cn2ccnc2)cc1	IIIB	fluorescence	-	10 µg/mL	95%
O=S(=O)(O)c1c2ccccc2c(-c2c3nc(c(-c4c5ccccc5c(S(=O)(=O)O)c5ccccc45)c4ccc([nH]4)c(-c4c5ccccc5c(S(=O)(=O)O)c5ccccc45)c4nc(c(-c5c6ccccc6c(S(=O)(=O)O)c6ccccc56)c5ccc2[nH]5)C=C4)C=C3)c2ccccc12	IIIB	ELISA	-	50 µg/mL	100%
O=C(O)c1ccc(-c2c3nc(c(-c4ccc(C(=O)O)cc4)c4ccc([nH]4)c(-c4ccc(C(=O)O)cc4)c4nc(c(-c5ccc(C(=O)O)cc5)c5ccc2[nH]5)C=C4)C=C3)cc1	-	-	-	60 µg/mL	84.3%
COC(=O)C(=O)N1CCC[C@@H]1C(=O)N[C@H](Cc1ccccc1)C(=O)OCc1ccccc1	-	ELISA	10% FBS	500 µM	13%
O=C(O)CCC1=C(CC(=O)O)c2cc3nc(cc4[nH]c(cc5[nH]c(cc1n2)c(CC(=O)O)c5CCC(=O)O)c(CC(=O)O)c4CCC(=O)O)C(CC(=O)O)=C3CCC(=O)O	-	-	-	60 µg/mL	41.1%
O=CC(O)C(OC(=O)c1cc(O)c(O)c(O)c1)C1OC(=O)c2cc(O)c(O)c(O)c2-c2c(cc(O)c(O)c2O)C(=O)OCC1O	-	binding	-	12.5 µg/mL	67.4%
O=C(Oc1cc(O)cc2c1C[C@@H](OC(=O)c1cc(O)c(O)c(O)c1)[C@@H](c1cc(O)c(O)c(O)c1)O2)c1cc(O)c(O)c(O)c1	-	ELISA	-	20 µM	0.8%
C1=Cc2nc1c(-c1ccncc1)c1ccc([nH]1)c(-c1ccncc1)c1nc(c(-c3ccncc3)c3ccc([nH]3)c2-c2ccncc2)C=C1	-	-	-	60 µg/mL	88.2%

Repeating the first 2 entries:

Cc1ncc(COP(=O)(O)O)c(C=O)c1O ; read by: binding ; tested at: 100 µM ; value: 0%
CC(C)(CS(=O)(=O)[O-])[NH2+]C(=O)C(CC(F)(OC(F)(F)C(F)(OC(F)(F)C(F)(OC(F)(F)C(F)(F)C(F)(F)F)C(F)(F)F)C(F)(F)F)C(F)(F)F)C(F)(OC(F)(F)C(F)(OC(F)(F)C(F)(OC(F)(F)C(F)(F)C(F)(F)F)C(F)(F)F)C(F)(F)F)C(F)(F)F ; read by: ELISA ; tested at: 100 µg/mL ; value: 88%